In experiment [1] the test system is Mus musculus. The experiment is described as follows: Neuroprotective activity against sarin-induced CD-1 mouse assessed as protective agent at 100 mg/kg, IM after 24 hrs.
Experiment [2] has as its system Mus musculus. The experiment is described as follows: Neuroprotective activity against cyclosarin-induced CD-1 mouse assessed as protective agent at 100 mg/kg, IM after 24 hrs.

These results are taken from ChEMBL document CHEMBL5113391, “Halogen substituents enhance oxime nucleophilicity for reactivation of cholinesterases inhibited by nerve agents” (2022).

SMILES strings stand for the structures.

Take `NC(=O)c1cc[n+](CCC[n+]2cc(Cl)c(/C=N/O)c(Cl)c2)cc1.[Br-].[Br-]`: the Activity index in the experiment on Mus musculus [1] was determined as 4; in the experiment on Mus musculus [2] it was 8.
